Test system: mice
Settings: mouse, in vivo

C1COCCN1 [morpholine]
Pain Threshold (s) 15 min: 17.19 ± 2.22 s
Pain Threshold (s) 30 min: 41.80 ± 4.58 s
Pain Threshold (s) 60 min: 50.41 ± 6.59 s
Pain Threshold (s) 120 min: 50.82 ± 4.35 s
Pain Threshold (s) 180 min: 47.11 ± 4.04 s
pain threshold (s) 15min: 17.19 ± 2.22 s
pain threshold (s) 30min: 41.80 ± 4.58 s
pain threshold (s) 60min: 50.41 ± 6.59 s
pain threshold (s) 120min: 50.82 ± 4.35 s
pain threshold (s) 180min: 47.11 ± 4.04 s

From article PMC7143421 (Marine Drugs, 2020)
